Data: the supplement of paper PMC9931576
Human monoclonal antibodies against the spike receptor-binding domain (heavy:light variable regions). IC50 against pseudoviruses bearing the spike of naturally observed variants; lower = stronger; >10 µg/ml means not reached at the top dose. No active / inactive call. The stated detection limit is 0.0005 µg/ml; values near or below 0.001 µg/ml lie at the floor of the assay.

B1: BD55-5918 (protein)
chain 1: QVQLVQSGAEAKKPGSSVKVSCKASGGTFNNYAINWVRQAPGQGLEWMGRIIPILDIPNYAQNFQGRVTFTADKFTGTAYMELSSLRSEDTAVFYCATSAYESSYSSSAYPLDYWGQGSLVTVSS
chain 2: DIQMTQSPSSLSASVGDRVTITCRASQTISNYLHWYQQQPGKAPRLLIYAASSLQGGVPSRFSGSGSGTEFTLTISSLHPEDFATYYCQQTYSAPRTFGQGTKVEFK
B2: BD55-5920 (protein)
chain 1: EVQLLESGGGLVQPGGSLGLSCAASGFTFSTYAMGWVRQAPGKGLEWVSGITYSGESTYYADSVKGRFTISRDNSKNTLYLHMNSLRADDTAIYYCAKVPARIAVVGSVYYFDYWGQGTLVTVSS
chain 2: QSALTQPASVSGSPGQSITISCAGTSSDVGVYNYVSWYQQHPGKAPKLMIYDVTKRPSGVSNRFSGSKSGNTASLTISGLQADDEADYYCSSYASSSTLVFGGGTKLTVL
B3: BD55-5919 (protein)
chain 1: QVQLVQSGAEVKKPGASVKVSCKVSGNTLRELSIYWVRQAPGKGLEWMGGFDPEDGKTIYAQKFQGRVIMTEDTSTDTAYMELSSLRSEDTAMYYCATAPRYSGYDYFYYYNGMDVWGQGTTVTVSS
chain 2: DIQMTQSPPSLSASVGDRVTITCRASQGISNHLAWFQQKPGKAPKPLVYAASSLQSGVPSKFSGSGSGTDFTLTISSLQPEDFATYYCQQYNSYPRTFGGGTKVEIK
B4: BD55-5924 (protein)
chain 1: QVQLQESGPGLVKPSETLSLTCTVSGGSINTDYWSWIRQPAGKGLEWIGRIYASGSPSYNPSLNSRITMSVDTSRNQFSLKLNSVTAADTAVYFCAREKHYYDDSGYYHYFFDFWGQGTVVTVSS
chain 2: IQMTQSPSSLSASVGDRVTITCRASQGIANYLAWFQLKPGKAPKSLIYAASALHTGVPSKFSGSGSGTDFNLTISSLQPEDFATYYCQQYTGYPPTFGQGTKVEVK
B5: BD55-5953 (protein)
chain 1: QVTLKESGPVLVKPTETLTLTCTVSGFSLVNSRMGVSWIRQPPGKALEWLAHILSNDEKSYSTSLKNRLTISKDTSKSQVVLTMTNVDPADTATYFCARIPAHSSIYYTLEYYFDYWGRGTLVTVSS
chain 2: YELTQPPSVSVSPGQTARIPCSGDALPRLYTYWYQLRPGQAPLLVIYNDSERPSGIPERFSGSTSGTTVTLTISGVQADDEADYYCQSADSSGININFGGGTKLTVL
B6: BD55-5942 (protein)
chain 1: EMQLVQSGGGLVQPGGSLRLSCAAPEFTFSSYWMSWVRQAPGRGLEWVANINQDGSEKYYVDSVKGRFTIFRDNAKNSLYLQMNSLGAEDTAVYYCARRALDIVAPIAGDYYFDSWGQGTLVTVSS
chain 2: SYELTQPPSVSVSPGQTARITCSGDAFPRQFGYWYQQKPGQAPVLVIYKDSERPSGIPERFSGSSSGKRVTLTISGVQAEDEADYYCQSADSSGFPGVFGGGTKLTVL
B7: BD55-5936 (protein)
chain 1: EVQLVESGGGLVQPGGSLRLSCAASGFIFSSYNMNWVRQAPGKGLEWVSYISSGSDTIYDADSVKGRFTISRDNAKNSLYLQMNSLRDEDTAVYYCARHYGAKSYYYYGMDVWGQGTTVTVSS
chain 2: DIQMTQSPSSLSASVGDRVTITCRASQTIYNYLNWYQQRPGKAPKLVIYAASSLQSGVPPRFSGSGSGTDFTLTISSLQPEDFATFYCQQSYSTPPTFGQGTKLEIK
B8: BD55-5952 (protein)
chain 1: QVQLVQSGAEVKKPGASVKVSCKASGYTFTNYDINWVRQATGQGPEWMGWMNPNSGDTGYAQKFQGRVTMTRDTSIRTAYMELSSLTSEDTAVYYCAISFDSRGYYYYYAMDVWGQGTTVTVSS
chain 2: DIQMTQSPSSLPASVGDRVAITCRASQSISSYLNWYQQKPGKAPKLLIYDASTLQTGVPSRISGSGSGTDFTLTISSLQPEDFATYYCQQSYSTPPTFGQGTKVEFK
B9: BD55-5938 (protein)
chain 1: QLQLQESGPGLVKPSETLSLTCTVSGGSISSSSYYWGWIRQPPGKGLEWIGIIYYSGSTYYNPSLKSRVTISIDTSKNHFSLKLSSVTAADTAVYYCARDLILYGEGAFDYWGQGTLVTVSS
chain 2: QAGLTQPPSVSKGLRQTATLTCTGNSNNVGNQGAAWLQQHQGHPPKLLSYRNNNRPSGISERLSASRSGNTASLTITGLQPEDEADYYCSAWDSSLSAWVFGGGTKLTVL
B10: BD55-5917 (protein)
chain 1: QVQLQESGPGLVKSSETLSLTCTVSGGSVNFYYWSWIRQPPGRGLEWIGFIHSSGSANYNPSLKSRVTISVDTSKDQFSLKLRSVTAADTAVYYCASYGGQGYNWLDPWGQGALVTVSS
chain 2: QSVLTQPPSVSAAPGQKVTISCSGSSSNIGNNFVSWYQQLPGTAPKLLIYDNTKRPSGIPDRFSGSKSGTSATLGITGLQTGDEADYYCGTWDSSLSAVIFGGGTKLTVL
B11: BD55-5939 (protein)
chain 1: QMQLVQSGHEVKKSGASVKVSCKASGFSFTSSAVQWVRQARGQRLEWIGWIVVGSGSTYYAQKFQERLTITRDMSTSTVYVQLNSLRDEDTAVYYCSRGHLGYYYHGMDVWGQGTTVTVSS
chain 2: DIQMTQSPSSLSASVGDRVTITCQASQDISNYLNWFQQKPGKAPKLLIYDASNLEAGVPSRFSGSGSGTDFTFTISGLQPEDFATYFCQQYDNLPRTFGQGTKVEI
B12: BD55-5950 (protein)
chain 1: EVQLVESGGGLIQPGGSLRLSCVASGVTVSRNYMSWVRQAPGKGLEWVSVIYSGGSTYYADSVKGRFTISRDNSKNTLYLQMNSLRAEDTAVYYCARDLGDDAFDIWGQGTMVTVSS
chain 2: DIQLTQSPSFLSASVGDRVTITCRASQGISSYLAWYQQKPGKAPKLLIYAASTLQSGVPSRFSGSGSGTEFTLTISSLQPEDFATYYCQQLNSYPRSGTFGQGTKVEIK

target: SARS-CoV-2 Omicron BA.1 spike pseudovirus; assay: pseudovirus neutralization IC50; higher = weaker neutralization
Description: (§1)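 Single-round VSV luciferase pseudovirus mixed with antibody dilutions for 1 h and put on Huh-7 cells for about a day; IC50 from the dose curve.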

| Binder | pseudovirus neutralization IC50 [µg/mL] |
| --- | --- |
| B1 | > 10 |
| B2 | > 10 |
| B3 | > 10 |
| B4 | > 10 |
| B5 | > 10 |
| B6 | > 10 |
| B7 | > 10 |
| B8 | > 10 |
| B9 | > 10 |
| B10 | > 10 |
| B11 | > 10 |
| B12 | > 10 |

target: SARS-CoV-2 Omicron BA.2 spike pseudovirus; assay: as above
Description: as §1

| Binder | pseudovirus neutralization IC50 [µg/mL] |
| --- | --- |
| B1 | > 10 |
| B2 | > 10 |
| B3 | > 10 |
| B4 | > 10 |
| B5 | > 10 |
| B6 | > 10 |
| B7 | > 10 |
| B8 | > 10 |
| B9 | > 10 |
| B10 | > 10 |
| B11 | > 10 |
| B12 | > 10 |

target: SARS-CoV-2 Omicron BA.2.75 spike pseudovirus; assay: as above
Description: as §1

| Binder | pseudovirus neutralization IC50 [µg/mL] |
| --- | --- |
| B1 | > 10 |
| B2 | > 10 |
| B3 | > 10 |
| B4 | > 10 |
| B5 | > 10 |
| B6 | > 10 |
| B7 | > 10 |
| B8 | > 10 |
| B9 | > 10 |
| B10 | > 10 |
| B11 | > 10 |
| B12 | > 10 |

target: SARS-CoV-2 Omicron BA.5 spike pseudovirus; assay: as above
Description: as §1

| Binder | pseudovirus neutralization IC50 [µg/mL] |
| --- | --- |
| B1 | > 10 |
| B2 | > 10 |
| B3 | > 10 |
| B4 | > 10 |
| B5 | > 10 |
| B6 | > 10 |
| B7 | > 10 |
| B8 | > 10 |
| B9 | > 10 |
| B10 | > 10 |
| B11 | > 10 |
| B12 | > 10 |

target: SARS-CoV-2 Omicron BQ.1.1 spike pseudovirus; assay: as above
Description: as §1

| Binder | pseudovirus neutralization IC50 [µg/mL] |
| --- | --- |
| B1 | > 10 |
| B2 | > 10 |
| B3 | > 10 |
| B4 | > 10 |
| B5 | > 10 |
| B6 | > 10 |
| B7 | > 10 |
| B8 | > 10 |
| B9 | > 10 |
| B10 | > 10 |
| B11 | > 10 |
| B12 | > 10 |

target: SARS-CoV-2 Omicron XBB spike pseudovirus; assay: as above
Description: as §1

| Binder | pseudovirus neutralization IC50 [µg/mL] |
| --- | --- |
| B1 | > 10 |
| B2 | > 10 |
| B3 | > 10 |
| B4 | > 10 |
| B5 | > 10 |
| B6 | > 10 |
| B7 | > 10 |
| B8 | > 10 |
| B9 | > 10 |
| B10 | > 10 |
| B11 | > 10 |
| B12 | > 10 |

target: SARS-CoV-2 early D614G spike pseudovirus; assay: as above
Description: as §1

| Binder | pseudovirus neutralization IC50 [µg/mL] |
| --- | --- |
| B1 | 0.0018 |
| B2 | 0.544 |
| B3 | > 10 |
| B4 | > 10 |
| B5 | > 10 |
| B6 | > 10 |
| B7 | > 10 |
| B8 | > 10 |
| B9 | > 10 |
| B10 | 0.00204 |
| B11 | > 10 |
| B12 | 0.0222 |
